Compound potency records, mixed from different reports. Data source: NIAID ChemDB in PubChem.

All rows: growth or infection tests; species: Candida albicans; method: agar; endpoint: MIC

a–b is a range or a potency band.

{"compound": "c1ccc(N2CCC(n3cc(CN4CCc5sccc5C4)nn3)CC2)cc1", "strain or isolate": "NCIM3471", "result": "50 µg/mL"}
{"compound": "C[C@@H](NC(=O)[C@@H](N)CCCCN)[C@@H](Cc1ccccc1)B1OC2CC3CC(C3(C)C)[C@@]2(C)O1", "result": "≤500 µg/mL"}
{"compound": "OCc1ccc(O)c(N=Nc2nc3ccccc3[nH]2)c1", "result": "<0.016 µg/mL"}
{"compound": "O=C1CSC(c2c(Cl)cccc2Cl)N1CCc1ccccc1", "strain or isolate": "NCIM 3102", "result": "25 µg/mL"}
{"compound": "Cn1c(=O)cc(Oc2nc(Nc3ccc(C#N)cc3)nc(Oc3cc(=O)oc4ccccc34)n2)c2ccccc21", "strain or isolate": "MTCC 183", "result": "250 µg/mL"}
{"compound": "Nc1[nH]n(-c2ccccc2)c(=O)c1N=Nc1nc2ccccc2[nH]1", "result": "<0.016 µg/mL"}
{"compound": "Cc1ccc2nc(Nc3nc(Nc4ccc(C#N)cc4)nc(Oc4cc(=O)n(C)c5ccccc45)n3)sc2c1", "strain or isolate": "MTCC 183", "result": "500 µg/mL"}
{"compound": "O=C(CSc1nnc(-c2ccc3ncccc3c2)o1)Nc1nc2ccc([N+](=O)[O-])cc2s1", "result": "100 µg/mL"}
{"compound": "Clc1cccc(-c2n[nH]c(CN3CCc4sccc4C3)n2)c1", "strain or isolate": "NCIM371", "result": "50 µg/mL"}
{"compound": "C[N-]c1nc(NOC)c2c(n1)[N+](C)=C=[N+]2C/C=C(\\C)CC/C=C(\\C)CC/C=C(\\C)CCC=C(C)C", "strain or isolate": "ATCC 90028", "result": "2 µg/mL"}
{"compound": "N#Cc1ccc(Nc2nc(Oc3cccc4cccnc34)nc(N3CCOCC3)n2)cc1C(F)(F)F", "strain or isolate": "MTCC 183", "result": "25 µg/mL"}
{"compound": "COc1ccc2nc(Nc3nc(Nc4ccc(C#N)cc4)nc(Oc4cc(=O)n(C)c5ccccc45)n3)sc2c1", "strain or isolate": "MTCC 183", "result": "100 µg/mL"}
{"compound": "Clc1cccc(N2CCN(c3nc(Cl)nc(NC4CC4)n3)CC2)c1", "strain or isolate": "MTCC 183", "result": "100 µg/mL"}
{"compound": "O=C(NNC(=S)Nc1ccc(F)cc1F)c1cc2ccccc2[nH]1", "strain or isolate": "ATCC 90028", "result": "400 µg/mL"}
{"compound": "CCOC(=O)C(C#N)=NNc1nc2ccccc2[nH]1", "result": "<0.016 µg/mL"}
{"compound": "Clc1nc(NC2CC2)nc(N2CCN(Cc3ccccc3)CC2)n1", "strain or isolate": "MTCC 183", "result": "50 µg/mL"}
{"compound": "Cc1ccc(NC(=O)CSc2nnc(-c3ccc4ncccc4c3)o2)cc1", "result": "100 µg/mL"}
{"compound": "CCN1CCN(c2nc(Nc3ccc(C#N)c(C(F)(F)F)c3)nc(Oc3cccc4cccnc34)n2)CC1", "strain or isolate": "MTCC 183", "result": "100 µg/mL"}
{"compound": "O=C(CSc1nnc(-c2ccc3ncccc3c2)o1)Nc1ccc(Cl)cc1", "result": "100 µg/mL"}
{"compound": "Clc1ccc(C(c2ccccc2)N2CCN(c3nc(NCCNc4ncnc5c(Br)cc(Br)cc45)nc(NC4CC4)n3)CC2)cc1", "strain or isolate": "MTCC 183", "result": "25 µg/mL"}
{"compound": "CCN1CCC(n2cc(-c3nc(-c4ccccc4)n[nH]3)nn2)CC1", "result": "45 µg/mL"}
{"compound": "COc1ccc(OC)c(C2SCC(=O)N2c2ccccn2)c1", "strain or isolate": "NCIM 3102", "result": "40 µg/mL"}
{"compound": "CONc1nc([O-])nc2c1[N+](C/C=C(\\C)CC/C=C(\\C)CC/C=C(\\C)CCC=C(C)C)=C=[N+]2C", "strain or isolate": "ATCC 90028", "result": ">16 µg/mL"}
{"compound": "O=C(c1ccccc1)N1CCC(n2cc(-c3noc(=O)[nH]3)nn2)CC1", "strain or isolate": "NCIM3471", "result": "40 µg/mL"}
{"compound": "C=C(CC[C@@H](C)C1CCC2C3=C(CC[C@@]21C)[C@@]1(C)CC[C@H](O)CC1CC3=O)C(C)C", "result": ">100 µM"}
{"compound": "CCC(=O)N1CCC(n2cc(-c3nc(-c4ccc(C)cc4)n[nH]3)nn2)CC1", "result": "160 µg/mL"}
{"compound": "OC(Cn1cncn1)(Cn1cncn1)c1ccc(F)cc1F", "result": "25–100 µg/mL"}
{"compound": "O=C(OCC=Nc1nc2ccccc2[nH]1)c1ccccc1Nc1ccnc2c(C(F)(F)F)cccc12", "result": "<0.016 µg/mL"}
{"compound": "Fc1ccc(Cc2nc(CN3CCc4sccc4C3)n[nH]2)cc1", "strain or isolate": "NCIM371", "result": "15 µg/mL"}
{"compound": "COc1cc(/C=C/C=C/C=C/C2C=CC=N2)oc(=O)c1.COc1cc(/C=C/C=C/C=C/C2C=CC=N2)oc(=O)c1", "result": ">100 µM"}
{"compound": "c1ccc(N/N=C2/c3ccccc3OCC2n2cncn2)cc1", "strain or isolate": "PTCC 5027", "result": "16 µg/mL"}
{"compound": "Cn1c(=O)cc(Oc2nc(Nc3ccc(C#N)cc3)nc(Nc3nc4ccc([N+](=O)[O-])cc4s3)n2)c2ccccc21", "strain or isolate": "MTCC 183", "result": "50 µg/mL"}
{"compound": "Cc1nnsc1C(=O)NNC(=S)Nc1ccc(F)cc1", "strain or isolate": "ATCC 10231", "result": ">400 µg/mL"}
{"compound": "O=C(c1ccc(Cl)cc1)N1CCC(n2cc(-c3nc(-c4ccccc4)n[nH]3)nn2)CC1", "result": "120 µg/mL"}
{"compound": "Cc1cnc(N2C(=O)CSC2c2c(Cl)cccc2Cl)c(C)c1", "strain or isolate": "NCIM 3102", "result": "42 µg/mL"}
{"compound": "Cc1nnsc1C(=O)NNC(=S)Nc1ccc(Cl)cc1Cl", "strain or isolate": "ATCC 10231", "result": "200 µg/mL"}
{"compound": "Fc1ccc(-c2cn(-c3ccccc3)nc2C=Nc2nc3ccccc3[nH]2)cc1", "result": "<0.016 µg/mL"}
{"compound": "FC(F)(F)c1cccc(N2CCN(c3nc(Cl)nc(NC4CC4)n3)CC2)c1", "strain or isolate": "MTCC 183", "result": "50 µg/mL"}
{"compound": "N#Cc1n[nH]c2nc3ccccc3n2c1=O", "result": "<0.016 µg/mL"}
{"compound": "COc1cc(-c2nnc(Sc3nc(Nc4ccc(C#N)cc4)nc(Oc4cc(=O)n(C)c5ccccc45)n3)o2)cc(OC)c1OC", "strain or isolate": "MTCC 183", "result": "50 µg/mL"}
{"compound": "N#Cc1ccc(Nc2nc(Oc3cccc4cccnc34)nc(N3CCN(c4ncccn4)CC3)n2)cc1C(F)(F)F", "strain or isolate": "MTCC 183", "result": "6.25 µg/mL"}
{"compound": "O=C(CSc1nnc(-c2ccc3ncccc3c2)o1)Nc1nc2ccc(F)cc2s1", "result": "25 µg/mL"}
{"compound": "Nn1c(-c2ccc(Cl)cc2)nc2ccccc2c1=O", "strain or isolate": "ATCC 2091", "result": "5.8 µg/mL"}
{"compound": "NS(=O)(=O)c1ccc(N2C(=O)CSC2c2ccccc2Cl)cc1", "strain or isolate": "NCIM 3102", "result": "19 µg/mL"}
{"compound": "c1ccc(-c2n[nH]c(CN3CCc4sccc4C3)n2)cc1", "strain or isolate": "NCIM371", "result": "75 µg/mL"}
{"compound": "O=C(CSc1nnc(-c2ccc3ncccc3c2)o1)Nc1ccc(I)cc1", "result": "100 µg/mL"}
{"compound": "Fc1ccccc1N1CCN(c2nc(NCCNc3ncnc4c(Br)cc(Br)cc34)nc(NC3CC3)n2)CC1", "strain or isolate": "MTCC 183", "result": "25 µg/mL"}
{"compound": "CCOc1ccc(NC(=O)CSc2nnc(-c3ccc4ncccc4c3)o2)cc1", "result": "25 µg/mL"}
{"compound": "CC1Oc2ccccc2C(=O)C1n1ccnc1", "strain or isolate": "PTCC 5027", "result": "64 µg/mL"}
{"compound": "CO[N-]c1nc(C)nc2c1[N+](C/C=C(\\C)CC/C=C(\\C)CC/C=C(\\C)CCC=C(C)C)=C=[N+]2C", "strain or isolate": "ATCC 90028", "result": "4 µg/mL"}
{"compound": "CC1(C)C2CC3OB(C[C@@H](Cc4ccccc4)NC(=O)[C@H](Cc4ccccc4)NC(=O)[C@@H](N)Cc4ccccc4)O[C@]3(C)C1C2", "result": "≤500 µg/mL"}
{"compound": "CC(=O)N1CCN(c2nc(NCCNc3ncnc4c(Br)cc(Br)cc34)nc(NC3CC3)n2)CC1", "strain or isolate": "MTCC 183", "result": "50 µg/mL"}
{"compound": "N#Cc1ccc(NC(=O)CSc2nnc(-c3ccc4ncccc4c3)o2)cc1", "result": "100 µg/mL"}
{"compound": "Brc1cc(Br)c2ncnc(NCCNc3nc(NC4CC4)nc(N4CCN(C(c5ccccc5)c5ccccc5)CC4)n3)c2c1", "strain or isolate": "MTCC 183", "result": "50 µg/mL"}
{"compound": "c1ccc(C(c2ccccc2)c2n[nH]c(CN3CCc4sccc4C3)n2)cc1", "strain or isolate": "NCIM371", "result": "100 µg/mL"}
{"compound": "C[C@@H](B1OC2CC3CC(C3(C)C)[C@@]2(C)O1)[C@@H](Cc1ccccc1)NC(=O)C(N)Cc1ccccc1", "result": "≤500 µg/mL"}
{"compound": "CCOC(=O)C(=NNc1nc2ccccc2[nH]1)C(=O)OCC", "result": "<0.016 µg/mL"}
{"compound": "c1ccc(Cc2nc(CN3CCc4sccc4C3)n[nH]2)cc1", "strain or isolate": "NCIM371", "result": "100 µg/mL"}

The last 4 rows once more:

| compound | strain or isolate | result |
|---|---|---|
| c1ccc(C(c2ccccc2)c2n[nH]c(CN3CCc4sccc4C3)n2)cc1 | NCIM371 | 100 µg/mL |
| C[C@@H](B1OC2CC3CC(C3(C)C)[C@@]2(C)O1)[C@@H](Cc1ccccc1)NC(=O)C(N)Cc1ccccc1 |  | ≤500 µg/mL |
| CCOC(=O)C(=NNc1nc2ccccc2[nH]1)C(=O)OCC |  | <0.016 µg/mL |
| c1ccc(Cc2nc(CN3CCc4sccc4C3)n[nH]2)cc1 | NCIM371 | 100 µg/mL |

Blank or dashed fields: not listed here. Lines come from different laboratories, so protocols vary.